Human monoclonal antibodies against the spike receptor-binding domain (heavy:light variable regions). IC50 against pseudoviruses bearing the spike of naturally observed variants; lower = stronger; >10 µg/ml means not reached at the top dose. No active / inactive call. The stated detection limit is 0.0005 µg/ml; values near or below 0.001 µg/ml lie at the floor of the assay.
B1: BD55-4285 (protein)
chain 1: QVQLVQSGSELKKPGASVKVSCKASENIFTTFAIHWVRQAPGQGLEWMGWINTNTGNPTYAQGFTGRFVFSLDTSVNTAYLQISSLKTEDTAFYYCANSYDIYTYSLDSWGQGTLITVSS
chain 2: EKVLTQSPATLSVSPGERATLSCRASQSVGSDLAWYQQKPGQAPRLLIYGASTRATGIPARFSGSGSGTEFTLTITSLQSEDFAVYYCQQYNNWPLTFGGGTKVEIK
B2: BD55-3451 (protein)
chain 1: QVQLVQSGTEVKRPGSSVKVSCKASGGTFSTYTINWVRQAPGQGLEWMGRIIPMLNIPKYAQKFQDRVTITADRSTNTAYMELRSLRYDDTAVYYCVRAEGTGWLGYAFDIWGQGTMVTVSS
chain 2: QSALTQPASVSGSPGQSITISCTGTSSDLGGSVYVSWYQQHPGQAPKLIIYDVSNRPSGVSHRFSGSKSGNTASLTISGLQADDEADYYCTSYTTTTALVVFGGGTKLTVL
B3: BD55-3637 (protein)
chain 1: QVQLVESGGGVVQPGRSLRLSCAASGFTFSTYGMHWVRQAPGKGLQWVAFISDGGNKKYFADSVKGRFTISRDNSKNTLYLQMSSLRTEDTAVYYCAKERYCAGGDCSNPFFDYWGQGTLVTVSS
chain 2: DIQVTQSPSSLSASVGDRVTITCRASQSISSSLNWYQHKPGNAPKLLIYAASSLQSGVPSRFSGSGSGTDFILTISSLQPEDFATYYCQQSHSFPRTFGQGTKVEFR
B4: BD55-4325 (protein)
chain 1: QAQLVQSGAEVKKPGASVKVSCEAIGYAFKTYGISWVRQAPGQGLEWVGWISGHDGTTNYAQKFQGRVTLTTDTSTNTAFLEVKSLRSDDTAVFYCARDKAYSGYDYWSTIFDYWGQGTLVTVST
chain 2: SYVLTQPPSVSVAPGKTATITCGGNNIRSKSVQWFQQRPGQAPILVLYYDTDRPSGIPERFSGSNSGNTATLTISRVEAGDEADYYCQVWDSTTDHYLFGTGTKVTVL
B5: BD55-3716 (protein)
chain 1: QVQLVESGGGVVQPGRSLRLSCAASGFMFSSYAMDWVRQAPGKGLEWVAVISYDGRNKYYADSVKGRFTISRDNSKNTLYLQMNSLRPEDTAVYYCAREDGSLVWFGDLTLDYWGRGTLVTVSS
chain 2: QSVLTQPPSASGTPGQRVTISCSGSSSNIEINAVSWYQQLPGAAPKLLIYNNDQRPSGVPDRFSGSKSGTSASLAISGLQSEDEADYYCAAWDDSLKGVFGGGTKLTVL
B6: BD55-3684 (protein)
chain 1: EVQLVESGGGLVKPGGSLRLSCAASGFTFSSYSMTWVRQAPGKGLEWVSSISSSSDYIYYTDSMEGRFTISRDNAKNSLYLQMNSLRAEDTAVYYCATNREMATTEWGYFDNWGQGTLVTVSS
chain 2: EIVMTQSPATLSVSPGERATLSCRASQSASSNLAWYQQKPGQAPRLLIYDASTRATGIPARFSGSGSGTEFTLTISSLQSEDFAVYYCQQYYIWPPEFTFGPGTKVDIK

The binders below were run against SARS-CoV-2 Omicron BA.1 spike pseudovirus (assay: pseudovirus neutralization IC50; higher = weaker neutralization).
Experimental: (§1)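 Single-round VSV luciferase pseudovirus mixed with antibody dilutions for 1 h and put on Huh-7 cells for about a day; IC50 from the dose curve.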

Binder	pseudovirus neutralization IC50 [µg/mL]
B1	> 10
B2	> 10
B3	> 10
B4	> 10
B5	> 10
B6	> 10

The binders below were run against SARS-CoV-2 Omicron BA.2 spike pseudovirus in the same assay as above.
Experimental: as §1

Binder	pseudovirus neutralization IC50 [µg/mL]
B1	> 10
B2	> 10
B3	> 10
B4	> 10
B5	> 10
B6	> 10

What follows are binders tested against SARS-CoV-2 Omicron BA.2.75 spike pseudovirus in the same assay as above.
Experimental: as §1

Binder	pseudovirus neutralization IC50 [µg/mL]
B1	> 10
B2	> 10
B3	> 10
B4	> 10
B5	> 10
B6	> 10

Each binder was assayed against SARS-CoV-2 Omicron BA.5 spike pseudovirus in the same assay as above.
Experimental: as §1

Binder	pseudovirus neutralization IC50 [µg/mL]
B1	> 10
B2	> 10
B3	> 10
B4	> 10
B5	> 10
B6	> 10

What follows are binders tested against SARS-CoV-2 Omicron BQ.1.1 spike pseudovirus in the same assay as above.
Experimental: as §1

Binder	pseudovirus neutralization IC50 [µg/mL]
B1	> 10
B2	> 10
B3	> 10
B4	> 10
B5	> 10
B6	> 10

The binders below were run against SARS-CoV-2 Omicron XBB spike pseudovirus in the same assay as above.
Experimental: as §1

Binder	pseudovirus neutralization IC50 [µg/mL]
B1	> 10
B2	> 10
B3	> 10
B4	> 10
B5	> 10
B6	> 10

The binders below were run against SARS-CoV-2 early D614G spike pseudovirus in the same assay as above.
Experimental: as §1

Binder	pseudovirus neutralization IC50 [µg/mL]
B1	0.256
B2	0.0098
B3	0.92
B4	0.198
B5	1.15
B6	> 10

Reference: the supplement of paper PMC9931576
